## Percent effect of library compounds

Each number is a percent effect as filed. The controls that fix the scale are not given in the record; negative values are as filed. Many other results are left out here, so strong results are more common than in the screen. Two or more numbers in one place are separate tests of the same structure; such repeats can differ widely. A dash means the value is not listed here; it may have been measured.

Mtb cholesterol medium: 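Phenotypic screen: M. tuberculosis growth, cholesterol and DPPC medium, 4 days; the read-out is not stated. Concentration: 50 µM. The record gives no direction; compounds that gave an IC50 in retests scored well above the rest, so higher reads as more growth inhibition. Size under these conditions: about 69,000 compounds, about 370 of them at 50% or above in at least one test.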
Mtb glucose medium: 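Growth of Mycobacterium tuberculosis over 3 days (7H9 medium with glucose and tyloxapol); the read-out is not stated. Tested at 50 µM. The record gives no direction; compounds that gave an IC50 in retests scored well above the rest, so higher reads as more growth inhibition. About 69,000 compounds were tested under these conditions; 1.1% (about 760) showed 50% or more at least once.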

SMILES,Mtb cholesterol medium,Mtb glucose medium
CC(=O)N1CCC(C(=O)c2cc(C)cnc2N)CC1,-8.828,6.472
CN(Cc1cc(F)ccc1C#N)CC(C)(CO)CO,-,59.1
Cc1ccc(C(C)N(C)CCS(=O)(=O)CCC(N)=O)cc1 (centres unmarked),0.6981,12.19
COCCN1CCN(C(C)C(=O)Nc2ccnn2C(C)C)CC1 (centres unmarked),53.27 and 16.43,-
COc1ccc(CNC(Cc2ccsc2)c2ccc(C)cn2)cc1OC.Cl (centres unmarked),-,27.04
CN(Cc1nnc(C2CC2)o1)Cc1ccccc1-c1ccccc1,-,69.55 and 45.52
CC(C)N1CC2(CCCN(c3ncc(Cl)cc3F)C2)CCC1=O (centres unmarked),-,-2.46
Cc1csc(CN(C)c2cc(C)nc3c(C)c(C)nn23)n1,38.19,58.07 and 65.34
Cc1cccc(CNCC2COC3(CCCCC3)O2)c1C (centres unmarked),-19.51,-27.45
c1ccc(NCc2ccc(Cn3ccnc3)cc2)nc1,12.78,13.03
Cc1ccc2[nH]c(CN(C)Cc3n[nH]c4c3CCC4)nc2c1,-,15
O=C(O)c1cc(S(=O)(=O)Nc2cc(Cl)ccc2F)cc2c1OCCO2,-28.54,10.04
COc1cc(OC)cc(N2CCC(NCc3cc[nH]n3)C2)c1 (centres unmarked),0.8222,4.076
COC(=O)COc1ccc(-c2noc(C3CCCO3)n2)cc1 (centres unmarked),-,95.14
[H][C@]12CC[C@]([H])(CN(Cc3ccccn3)C1)N(C(=O)c1cc(C(C)C)on1)C2,-10.45,16.9
Cc1ccccc1-n1c(C)cc(=O)[nH]c1=O,-6.793,-9.919
CCC(CO)NCc1ccc(-c2ccccc2)o1.Cl (centres unmarked),-19.54,5.24 and -27.75
N#CC1(C(=O)N2CCCN(c3nccs3)CC2)CCCC1,2.179,28.77
COc1c(C)cnc(CSc2nnc(N)s2)c1C,11.73 and 50.34,-
CN1CCN(C(=O)c2cnsn2)c2cc(F)ccc21,-,1.599
Cn1ccc(-c2cc(C(=O)N3CCC(O)CC3)c3ccccn23)n1,-,90.84
CNC(=O)C1CN(C(=O)c2ccncc2)CCN(S(C)(=O)=O)C1 (centres unmarked),-1.349 and -6.816,-
CC(C)c1nc(CC(=O)Nc2nc(CN3CCCCCC3)cs2)cs1,-,72.81
CCc1nn(C)c(Cl)c1CN1CCN(c2ccc(C(N)=O)cn2)CC1,-,70.23 and 6.797
CCn1ccnc1CN1CCCC1Cn1cc(C)cn1 (centres unmarked),-,87.27
OCC1CCCN1c1cc(N2CCC(OC3CCCC3)CC2)ncn1 (centres unmarked),-,71.33
Cc1ccc(-c2nc(CCNCc3ccncc3)co2)cc1,20.03 and 32.69,-
CC(=O)N1CCc2cc(Cl)cc(Cl)c2C1,-,13.29
CN(C)c1ccc(-c2cc(C(=O)O)cc(S(=O)(=O)NC3CC3)c2)cc1,-,25.21
CC(Cn1ccnc1)NC(=O)Cc1ccc2c(c1)OCCO2 (centres unmarked),-15.8,-
CC(C)COC(C)C(=O)NCc1ccccc1 (centres unmarked),21.82,3.013
Cc1c(CN2CCc3[nH]cnc3C2C(=O)O)[nH]c2ccc(F)cc12 (centres unmarked),-,36.9 and 17.22
COc1ccc(-c2noc(CN3CC(n4cc(C)cn4)C3)n2)cc1,38.92,46.07
O=C(c1cc(Cl)c[nH]1)N1CCN(CCc2ccccn2)CC1,-,19.26
COc1ccccc1OCCCn1c(C)c(C)oc1=O,-8.411,-
COc1cccc(CN(C)C(=O)Nc2ccc3c(c2)OCCO3)c1,1.743,-19.53 and -3.634
Cc1noc(C)c1CN(C)CCc1nc(-c2cccc(Cl)c2)no1,15.43,30.62 and 35.95
CSc1ncc(C(=O)N2CCN(c3ccccc3C)CC2C)cn1 (centres unmarked),-,62.95
NCCc1n[nH]c(=O)n1-c1cccc2ccccc12,-,-40.67
Cc1ccc(CN2CC(C(=O)NCC3CC3)C3(CCOCC3)C2)s1.O=C(O)C(F)(F)F (centres unmarked),-,16.01 and -2.83

Repeated from the top, 3 entries:

Result for CC(=O)N1CCC(C(=O)c2cc(C)cnc2N)CC1 was Mtb cholesterol medium: -8.828%; Mtb glucose medium: 6.472%.
Result for CN(Cc1cc(F)ccc1C#N)CC(C)(CO)CO was Mtb glucose medium: 59.1%.
Result for Cc1ccc(C(C)N(C)CCS(=O)(=O)CCC(N)=O)cc1 (centres unmarked) was Mtb cholesterol medium: 0.6981%; Mtb glucose medium: 12.19%.

Source: ChEMBL document CHEMBL3988442, “University of Dundee, Small-Polar-MMV Screening Library” (2021).